Measured values from the supplement of paper PMC9931576.
Changes are numbered by the printed parent chain. Human monoclonal antibodies against the spike receptor-binding domain (heavy:light variable regions). IC50 against pseudoviruses bearing the spike of naturally observed variants; lower = stronger; >10 µg/ml means not reached at the top dose. No active / inactive call. The stated detection limit is 0.0005 µg/ml; values near or below 0.001 µg/ml lie at the floor of the assay.

B1: BD56-1853 (protein)
chain 1: QVQLVQSGAEVKKPGSSVKVSCKASGDTFSRYAISWVRQAPGQGLEWMGRIIPMFDMAASAQKFQGRATITADKSTSTAYMEITSLRSEDTAVYYCATSAYFYGSDGYYLDSWGQGTLVTVSS
chain 2: EIVLTQSPGTLSLSPGERATLSCRASQSISSNYLAWYQQKPGQAPRLLIYGASSRATGIPDRFSGGGSGTDFTLIISRLEPEDFAVYYCHQYHNSPRTFGQGTKVEIK
B2: BD56-1856 (protein)
chain 1: QVQLVHSGAEVKKPGSSVKVSCKASGGTFNSYAISWVRQAPGQGLEWMGRVIPIFDIVHYAQKFQDRVTISADTSTSTVYMELGSLRSEDTAIYYCARSFVGPKGKEDYYFDYWGQGTLVTVSS
chain 2: EIVLTQSPATLSLSPGERATLSCRASQSVSNYLAWYQQKPGQAPRLVIYDASKRATGIPARFSGSGSGTDFTLTISSLEPADFAVYYCQQRSIRALAFGGGTKVEIK
B3: BD56-1861 (protein)
chain 1: QVQLVHSGAEVKKPGSSVKVSCKASGGTFSNYAISWVRQAPGQGLEWMGRIIPMFDIVHYAQKFQGRVTITADKSTNTVFMEVGSLRSDDSAVYYCARSFVGPKGKEDYYFDYWGQGTLVTVSS
chain 2: B2 chain 2 with S30G, N31S, Y32D, R94Q
B4: BD56-1847 (protein)
chain 1: EVQLVESGGGLVQPGGSLRLSCAASGFTVSSNYMNWVRQAPGKGLEWVSVMYAGGSTFYADSVKGRFTISRHNSRNTLYLQMNSLRAEDTAVYYCARDAITYGMDVWGQGTTVTVSS
chain 2: DIQMTQSPSSLSASVGDRVTITCRASQSISSDLNWYQQKPGKAPKLLIHAASSLQSGVPSRFSGSGSGTDFTLTISSLQPEDFATYFCQQSYSTPPVTFGGGTKVDIK
B5: BD56-1849 (protein)
chain 1: EVQLVESGGGLVQPGRSLRLSCAASGFTFDDYAIHWVRQAPGKGLEWVSGVSWNSATIGYADSVKGRFIISRDNAKNSLYLQMNSLRAEDTALYYCAKDIGPKFYDILTGYFKEGHFGMDVWGQGTMVTVSS
chain 2: QSALTQPASVSGSPGQSITLSCTGTSSDVGGYNYVSWYQQHPGKAPKIMIYDVSNRPSGVSNRFSGSKSGNTASLTISGLQAEDEADYYCSSYTSSSTVVFGGGTKLTVL
B6: BD56-1862 (protein)
chain 1: QVQLVQSGAEVMKPGSSVKVSCKASGGTFSSFAITWVRQAPGQGLEWMGRIIPILSVANYAQKLQGRVTISADKSTSTAYMELSRLTSEDTAVYYCAAALQDGYRGYDLLAYWGQGTLVTVSS
chain 2: DIQMTQSPSTLSASVGDRVTITCRASQSINNWLAWYQQKPGKAPKLLIYDASSLESGVPSRFSGSGSGTEFTLTISSLQPDDFATYYCQQYKSYSPLTFGQGTKVEIK

What was measured:
Test in all cases: pseudovirus neutralization IC50; higher = weaker neutralization
[1] = molecular target: SARS-CoV-2 Omicron BA.1 spike pseudovirus
Protocol: (§1)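 Single-round VSV luciferase pseudovirus mixed with antibody dilutions for 1 h and put on Huh-7 cells for about a day; IC50 from the dose curve.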

[2] = molecular target: SARS-CoV-2 Omicron BA.2 spike pseudovirus
Protocol: as §1

[3] = molecular target: SARS-CoV-2 Omicron BA.2.75 spike pseudovirus
Protocol: as §1

[4] = molecular target: SARS-CoV-2 Omicron BA.5 spike pseudovirus
Protocol: as §1

[5] = molecular target: SARS-CoV-2 Omicron BQ.1.1 spike pseudovirus
Protocol: as §1

[6] = molecular target: SARS-CoV-2 Omicron XBB spike pseudovirus
Protocol: as §1

[7] = molecular target: SARS-CoV-2 early D614G spike pseudovirus
Protocol: as §1

Row | Binder | pseudovirus neutralization IC50 [1] [µg/mL] | pseudovirus neutralization IC50 [2] [µg/mL] | pseudovirus neutralization IC50 [3] [µg/mL] | pseudovirus neutralization IC50 [4] [µg/mL] | pseudovirus neutralization IC50 [5] [µg/mL] | pseudovirus neutralization IC50 [6] [µg/mL] | pseudovirus neutralization IC50 [7] [µg/mL]
1 | B1 | 0.00607 | 0.00539 | 0.00129 | > 10 | > 10 | > 10 | 0.00241
2 | B2 | 0.00303 | 0.00245 | 0.00437 | > 10 | > 10 | > 10 | 0.00282
3 | B3 | 0.00158 | 0.00136 | 0.00201 | > 10 | > 10 | > 10 | 0.00438
4 | B4 | 0.00465 | 0.00642 | > 10 | 0.298 | > 10 | > 10 | 0.0688
5 | B5 | 0.333 | 0.436 | 0.205 | > 10 | > 10 | > 10 | 0.092
6 | B6 | 0.0489 | 0.0443 | 0.0103 | > 10 | > 10 | > 10 | 0.011
